Test results: publication PMC12079475, “Identification, validation, and characterization of approved and investigational drugs interfering with the SARS‐CoV‐2 endoribonuclease Nsp15” (Protein Science : A Publication of the Protein Society, 2025)

Molecular target: Nsp15 (Severe acute respiratory syndrome coronavirus 2, UniProt P0DTD1)
Details: 5 μM Nsp15, 50 μM ligand; apo protein Tm 60.6 (0.1)°C

Compound | ΔT m°C nDSF [°C]
Cc1[nH]c2ccc(F)cc2c1-c1nc2c3cccnc3c3ncccc3c2[nH]1 [APTO‐253] | 0.2
CC1(C)C(=O)N=C2C1=C(O)C(=O)c1ccccc12 | 3.7
O=C1C(Cl)=C(NCCN2CCOCC2)C(=O)c2ncccc21 [NSC‐663284] | 1.8
Oc1ccc2ccccc2c1SSc1c(O)ccc2ccccc12 [IPA‐3] | 2
